A mixed list of measured activities; the numbers were collected in NIAID ChemDB.

All rows: toxicity to cultured cells; cell line: MT-4; endpoint: CC50

Lines come from different laboratories, so protocols vary. CCn: concentration that lowers growth or viability of the cells by n%.

SMILES	value
Cc1cn([C@@H]2O[C@H](CO[Si](C)(C)C(C)(C)C)C3(OS(=O)(=O)C=C3N)[C@H]2O[Si](C)(C)C(C)(C)C)c(=O)n(CC(=O)N[C@@H](C)C(=O)OCc2ccccc2)c1=O	≥250 µM
CCC(C)Oc1nc(Cc2cccc(C)c2)c(C)c(=O)[nH]1	>350 µM
CCc1c(Cc2c(F)cccc2F)nc(SCc2ccc([N+](=O)[O-])cc2)[nH]c1=O	>59.95 µM
Nc1ncnc2c1ncn2C[C@@H](CF)OCP(=O)(O)O	>100 µg/mL
NOCc1ccccc1Cl	73.3 µg/mL
Cc1cn([C@H]2C[C@H](F)[C@@H](CO)O2)c(=O)[nH]c1=O	0.1 µM
CC(C)=CCc1c(-c2ccc(O)cc2O)oc2cc(O)cc(O)c2c1=O	6.9 µg/mL
NOCc1ccccc1	82.3 µg/mL
C/C=C(/C)C(=O)O[C@@H]1[C@@H](C)[C@@]2(O)C(C=C(CO)C[C@]3(O)C(=O)C(C)=CC23)C2C(C)(C)[C@@]21OC(=O)C(C)CC	>62.5 µg/mL
CC(C)=CCc1cc(C2CC(=O)c3c(O)cc(O)c(CC=C(C)C)c3O2)cc(O)c1O	55 µg/mL
Cc1cccc(Cc2nc(OC3CCCCC3)[nH]c(=O)c2C)c1	>330 µM
Nc1nc(N)c2ncn(C[C@H](CF)OCP(=O)(O)O)c2n1	>100 µg/mL
COc1nc(Cc2cc(C)cc(C)c2)cc(=O)[nH]1	>410 µM
Cc1cn([C@H]2C[C@H](N=[N+]=[N-])[C@@H](CO)O2)c(=O)[nH]c1=O	4.97 µM
CCCCCCCCCCCCCC(=O)O[C@@]12[C@H](OC(C)=O)[C@@H](C)[C@@]3(O)[C@@H](C=C(CO)C[C@]4(O)C(=O)C(C)=C[C@@H]34)[C@@H]1C2(C)C	>125 µg/mL
NOCc1ccc(Cl)cc1Cl	48.1 µg/mL
COc1nc(Cc2cccc(C)c2)c(C)c(=O)[nH]1	>381 µM
O=c1[nH]c(=O)n([C@H]2C[C@H](F)[C@@H](CO)O2)cc1Cl	>500 µM
CCCC(=O)OCC1=C[C@H]2[C@@H]3C(C)(C)[C@]3(OC(=O)CCC)[C@H](OC(=O)CCC)[C@@H](C)[C@]2(O)[C@@H]2C=C(C)C(=O)[C@]2(O)C1	>62.5 µg/mL
CCC(Cc1ccccc1)c1cc(O)c(C(c2cccc(NC(=O)[C@H](Cc3cn(S(=O)(=O)c4ccc(C)cc4)cn3)NC(=O)OC(C)(C)C)c2)C2CC2)c(=O)o1	>>30 µM
COc1ccc(C#CCSc2nc(Cc3c(Cl)cccc3Cl)c(C)c(=O)[nH]2)cc1	>56.18 µM
Cc1cn([C@@H]2O[C@H](CO[Si](C)(C)C(C)(C)C)C3(OS(=O)(=O)C=C3N)[C@H]2O[Si](C)(C)C(C)(C)C)c(=O)n(CC(=O)N[C@H](C(=O)OCc2ccccc2)C(C)C)c1=O	105 µM
CCC(Cc1ccccc1)c1cc(O)c(C(c2cccc(NC(=O)Cc3ccncc3)c2)C2CC2)c(=O)o1	>>30 µM
C[C@@H](Cn1cnc2c(N)nc(N)nc21)OCP(=O)(O)O	>100 µg/mL
CC(=O)OCC1=C[C@H]2[C@@H]3C(C)(C)[C@]3(OC(C)=O)[C@H](O)[C@@H](C)[C@]2(O)[C@@H]2C=C(C)C(=O)[C@@H]2C1	>500 µg/mL
CC(C)CCNC(=O)C(F)(F)C(=O)[C@H](Cc1ccc(OCc2ccccc2)cc1)NC(=O)[C@@H](NC(=O)OCc1ccccc1)C(C)C	44 µM
Cc1cccc(Cc2cc(=O)[nH]c(OC(C)C)n2)c1	263 µM
Cc1cn([C@@H]2O[C@H](CO[Si](C)(C)C(C)(C)C)C3(OS(=O)(=O)C=C3N)[C@H]2O[Si](C)(C)C(C)(C)C)c(=O)n(CC(=O)N[C@@H](CC(=O)O)C(=O)O)c1=O	>250 µM
Cc1cc(C)cc(Cc2cc(=O)[nH]c(OC(C)C)n2)c1	>367 µM
C=C(C)[C@@H]1CC[C@]2(C(=O)O)CC[C@]3(C)[C@H](CC[C@@H]4[C@@]5(C)CC[C@H](OC(=O)CC(C)(C)C(=O)O)C(C)(C)[C@@H]5CC[C@]43C)[C@@H]12	14.03 µg/mL
COC(=O)c1ccc(CSc2nc(Cc3c(F)cccc3F)c(C)c(=O)[nH]2)cc1	>34.09 µM
COc1c(CC=C(C)C)c(O)cc2oc(=O)c3c4ccc(O)cc4oc3c12	14 µg/mL
c1cc(CN2CCNCCNCCNCC2)cc(CN2CCNCCNCCNCC2)c1	6.2 µM
COc1ccc(COCCSc2nc(Cc3c(F)cccc3F)c(C)c(=O)[nH]2)cc1	>55.87 µM
COc1nc(Cc2cccc(C)c2)cc(=O)[nH]1	>434 µM
COc1ccc(/C=C/CSc2nc(Cc3c(F)cccc3F)c(C)c(=O)[nH]2)cc1	3.93 µM
CC(C)CNC(=O)C(F)(F)C(=O)[C@H](Cc1ccc(OCc2ccccc2)cc1)NC(=O)[C@@H](NC(=O)OCc1ccccc1)C(C)C	6 µM
Cc1cc(/C=C/C#N)ccc1Oc1ccnc(Nc2ccc(C#N)cc2)n1	99.8 µM
COc1ccc(COCCSc2nc(C(C)c3c(F)cccc3F)c(C)c(=O)[nH]2)cc1	30.72 µM
CC(C)=CCc1cc(-c2oc3cc(O)c(CC=C(C)C)c(O)c3c(=O)c2O)ccc1O	53 µg/mL
Cc1cc(/C=C/C#N)cc(C)c1Oc1ccnc(Nc2ccc(C#N)cc2)n1	>25 µM

Repeating the final 3 entries:

SMILES	value
COc1ccc(COCCSc2nc(C(C)c3c(F)cccc3F)c(C)c(=O)[nH]2)cc1	30.72 µM
CC(C)=CCc1cc(-c2oc3cc(O)c(CC=C(C)C)c(O)c3c(=O)c2O)ccc1O	53 µg/mL
Cc1cc(/C=C/C#N)cc(C)c1Oc1ccnc(Nc2ccc(C#N)cc2)n1	>25 µM